Pooled drug test results. Numbers come from NIAID ChemDB, via PubChem.

All rows: whole-cell or culture tests; organism: HIV-1

Rows are shuffled and stem from different studies. An empty or dashed field is not shown. ECn: concentration that inhibits the pathogen or its effect by n%.

| structure | read by | endpoint | cell line | strain or isolate | changes | result |
|---|---|---|---|---|---|---|
| COC(=O)[C@H](C)NP(=O)(OC[C@@H]1C=C[C@H](n2cc(C)c(=O)[nH]c2=O)O1)Oc1ccc(Br)cc1 | p24 | EC50 | PBMC | S762-4 NRTI resistant | RT-M41L T215Y | 0.008 µM |
| CCOC(=O)C(=O)CC(=O)c1ccc(Oc2ccnc(Nc3ccc(C#N)cc3)n2)cc1 | MTT | EC50 | MT-4 | IIIB | K103N + Y181C | >22 µM |
| Cc1cn([C@H]2C[C@H](N=[N+]=[N-])[C@@H](CO)O2)c(=O)[nH]c1=O | p24 | EC50 | MM + M/M | BaL | - | 0.03 µM |
| NC(N)=NCCC[C@H](N)C(=O)NC[C@H]1O[C@H](O[C@H]2C(O)[C@@H](O[C@H]3O[C@H](CO)[C@@H](O)[C@H](NC(=O)[C@@H](N)CCCN=C(N)N)[C@H]3O)[C@H](NC(=O)[C@@H](N)CCCN=C(N)N)C[C@@H]2NC(=O)[C@@H](N)CCCN=C(N)N)[C@H](O)[C@@H](O)[C@@H]1O | cytopathic effect / MTT | EC50 | MT-4 | AOM | - | 67 µM |
| CN=C1CN=C(c2ccc[nH]2)c2cc(Cl)ccc2N1 | antigen | EC50 | H9 | IIIB | - | 2 µM |
| CCCc1cc(=O)oc2c3c(c4c(c12)OC(C)(C)C=C4)O[C@H](C)[C@@H](C)[C@@H]3O | XTT | EC50 | MT-2 | IIIB | - | 0.4 µM |
| Cc1ccnc2c1NC(=O)c1cccnc1N2C1CC1 | MTT | EC50 | MT-4 | IIIB | E138K | 0.18 µM |
| C/C=C/CSc1cc(NC(=S)c2ccsc2C)ccc1Cl | cytopathic effect / XTT | EC50 | CEM + CEM-SS | SK1 | - | 0.08 µM |
| CC(C)CN(C[C@@H](O)[C@H](Cc1ccccc1)NC(=O)O[C@H]1CCOC1)S(=O)(=O)c1ccc(N)cc1 | p24 | EC50 | MT-4 | NL4-3 | PR-D30N A71V | <0.02 µM |
| O=c1c(Oc2ccccc2)coc2cc(O)cc(O)c12 | cytopathic effect / MTT | EC50 | MT-4 | IIIB | - | >100 µg/mL |
| Cc1occc1C(=S)Nc1ccc(Cl)c(/C=N/OC(C)(C)C)c1 | cytopathic effect / XTT | EC50 | CEM + CEM-SS | NL4-3 (RT A98G) | RT-A98G | 0.7 µM |
| Cc1ccnc2c1NC(=O)c1cccnc1N2C1CC1 | MTT | EC50 | MT-4 | IIIB | K103N | >15 µM |
| Cc1ccnc2c1NC(=O)c1cccnc1N2C1CC1 | cytopathic effect / XTT | EC50 | CEM + CEM-SS | SK1 | - | 0.2 µM |
| COc1cc(O)c2c(=O)c(OC)c(-c3ccc(O)cc3)oc2c1 | MTT | EC50 | MT-4 | IIIB | - | 2.5 µg/mL |
| COc1ccc(S(=O)(=O)N(CC(C)C)C[C@@H](O)[C@H](Cc2ccccc2)NC(=O)O[C@H]2CO[C@H]3OCC(F)(F)[C@H]32)cc1 | - | EC50 | MT-4 | NL4-3 | L10F V32I M46I I45M A71V I84V APV resistant | 0.43 µM |
| O=c1c(O)c(-c2cc(O)c(O)c(O)c2)oc2cc(O)cc(O)c12 | MTT | EC50 | MT-4 | IIIB | - | 10.5 µg/mL |
| C1CNCCNCCCNCCNC1 | cytopathic effect / MTT | EC50 | MT-4 | IIIB | - | 399 µM |
| CC(C)=CCc1c(O)cc2oc(-c3ccc(O)cc3)c(O)c(=O)c2c1O | cytopathic effect / MTT | EC50 | MT-4 | IIIB | - | >20 µg/mL |
| Nc1ccn([C@@H]2CS[C@H](CO)O2)c(=O)n1 | RT activity | EC50 | PBMC | 4755-5 NRTI resistant recombinant | RT-M41L E44D D67N T69D Y118I M184V L210W T215Y | >10 µM |
| CC(C)c1nc(CN(C)C(=O)N[C@H](C(=O)N[C@@H](Cc2ccccc2)C[C@H](O)[C@H](Cc2ccccc2)NC(=O)OCc2cncs2)C(C)C)cs1 | p24 | EC50 | PBMC | Clinical isolate | PR-L10I V11I T12E I15V L19I R41K M46L L63 A71T V82A L90M | >1 µM |
| C=C(C)OC(=O)N1c2cc(Cl)ccc2NC(=S)C1(C)C | p24 | EC50 | H9 | B8 (RT K101I K103N Y181C G190A) | RT-K101I K103N Y181C G190A | >10 µg/mL |
| CCCc1cc(=O)oc2c3c(c4c(c12)OC(C)(C)C=C4)O[C@@H](C)[C@H](C)[C@@H]3O | p24 | EC50 | MM + M/M | ADA | - | 0.05 µM |
| CC(C)(C)NC(=O)[C@@H]1C[C@@H]2CCCC[C@@H]2CN1C[C@@H](O)[C@H](Cc1ccccc1)NC(=O)[C@H](CC(N)=O)NC(=O)c1ccc2ccccc2n1 | - | EC50 | MT-2 | RF | - | 0.0091 µM |
| COc1c(CC=C(C)C)c(O)cc2c1[C@@H]1Oc3cc(O)c(CC=C(C)C)cc3[C@@H]1CO2 | cytopathic effect / MTT | EC50 | MT-4 | IIIB | - | >20 µg/mL |
| C#Cc1ccc(Nc2nccc(Oc3c(C)cc(-c4cn(CCc5ccccc5)nn4)cc3C)n2)cc1 | MTT | EC50 | MT-4 | IIIB | L100I | >5.66 µM |
| Cc1ccnc2c1NC(=O)c1cccnc1N2C1CC1 | - | EC50 | MT-4 | - | RT-D67N K70R T215Y K219Q | <0.2 µM |
| O=c1[nH]cnc2c1ncn2[C@H]1CC[C@@H](CO)O1 | β-galactosidase | EC50 | MAGI (CCR5) + MAGI | HXB2 WT | - | 3.8 µM |
| O=C1CN=C(c2ccc[nH]2)c2cc(Cl)ccc2N1 | cytopathic effect / MTT | EC50 | MOLT-4 | IIIB | - | 0.067 µg/mL |
| C=C(COCP(=O)(O)O)Cn1cnc2c(=O)[nH]c(N)nc21 | - | EC50 | PBMC + H-PBMC | IIIB | - | 1.5 µM |
| CCN(c1ncccc1NC(C)(C)C)C1CCN(C(=O)c2cc3cc(NS(C)(=O)=O)ccc3[nH]2)CC1 | p24 | EC50 | PBMC | Isolate 458 | - | <0.03 µM |
| CC(C)=CCc1c(O)ccc2c1OC(c1ccccc1)CC2=O | MTT | EC50 | MT-4 | IIIB | - | 100 µg/mL |
| CC(=O)O[C@@]12C[C@@H](C)[C@@]3(O)[C@@H](C=C(CO)C[C@]4(O)C(=O)C(C)=C[C@@H]34)[C@@H]1C2(C)C | p24 / ELISA | EC50 | PBMC | KM018 | - | 0.948 µM |
| CC(C)Nc1cccnc1N1CCN(C(=O)c2cc3cc(NS(C)(=O)=O)ccc3[nH]2)CC1 | p24 | EC90 | PBMC | Isolate 458 | - | 7.7 µM |
| CC(C)[C@H](NC(=O)c1ccc2ccccc2n1)C(=O)N[C@@H](Cc1ccccc1)[C@H](O)CN1CC[C@@H](OCc2ccncc2)C[C@H]1C(=O)NC(C)(C)C | p24 / ELISA / antigen | EC50 | PBMC | NEVR | - | 0.0036 µM |
| CCOC(=O)c1oc2cc(O)cc(O)c2c(=O)c1Oc1ccc(OCc2ccccc2)cc1OCc1ccccc1 | cytopathic effect / MTT | EC50 | MT-4 | IIIB | - | >25 µg/mL |
| C1CNCCNCCCN(CCCN2CCCNCCNCCCNCC2)CCNC1 | p24 / ELISA | EC90 | PBL | IIIB | - | 3.73 µM |
| CCOC(=O)C(=O)CC(=O)c1cccc(Oc2ccnc(Nc3ccc(C#N)cc3)n2)c1 | MTT | EC50 | MT-4 | IIIB | F227L + V106A | >13 µM |
| Cc1ccnc2c1NC(=O)c1cccnc1N2C1CC1 | p24 | EC50 | H9 | A1(RT-G190E) | RT-G190E | >10 µg/mL |
| Cc1cn([C@H]2C[C@H](N=[N+]=[N-])[C@@H](CO)O2)c(=O)[nH]c1=O | - | EC50 | MONO/MACRO + Monocytes/macrophages | BaL | - | 0.056 µg/mL |
| C=CC(C)(C)c1cc(/C=C/C(=O)c2ccc(O)cc2)c(OC)cc1O | cytopathic effect / MTT | EC50 | MT-4 | IIIB | - | >20 µg/mL |
| CC(C)(C)NC(=O)[C@@H]1CN(Cc2cccnc2)CCN1C[C@@H](O)C[C@@H](Cc1ccccc1)C(=O)N[C@H]1c2ccccc2C[C@H]1O | cytopathic effect / MTT | EC50 | MT-2 | NL4-3 Laboratory clone | - | 0.011 µM |
| C#Cc1ccc(Nc2nccc(Oc3c(C)cc(-c4cn(CC(=O)Nc5ccc(Br)cc5)nn4)cc3C)n2)cc1 | MTT | EC50 | MT-4 | RES056 | - | >19.78 µM |
| Cc1ccnc2c1NC(=O)c1cccnc1N2C1CC1 | XTT | EC50 | CEM + CEM-SS | NL4-3 | RT-A98G | 0.2 µM |
| CCOCn1c(Sc2ccccc2)c(CC)c(=O)[nH]c1=O | syncytia | EC50 | CEM | IIIB TIBO R82913-resistant (RT K103N) | RT-K103N | 0.63 µg/mL |
| C#Cc1ccc(Nc2nccc(Oc3c(C)cc(-c4cn(CCC(=O)OC)nn4)cc3C)n2)cc1 | MTT | EC50 | MT-4 | IIIB | Y188L | >23.76 µM |
| CC(C)CN(C[C@@H](O)[C@H](Cc1ccccc1)NC(=O)O[C@H]1CO[C@H]2OCC(F)(F)[C@H]21)S(=O)(=O)c1ccc(N)cc1 | - | EC50 | MT-4 | NL4-3 | L23I E34Q K43I M46I I50L G51A L63P A71V V82A T91A ATV resistant | 0.04 µM |
| CCOCn1c(Sc2ccccc2)c(CC)c(=O)[nH]c1=S | syncytia | EC50 | CEM | IIIB BHAP(RT-L100I) | RT-L100I | 0.07 µg/mL |
| COc1ccc(S(=O)(=O)N(CC(C)C)C[C@@H](O)[C@H](Cc2ccccc2)NC(=O)O[C@H]2CO[C@H]3OCC[C@H]32)cc1 | p24 | EC50 | PBMC | Clinical isolate | PR-L10I K43T M46L I54L L63P A71T V82A L90M Q92K | 0.0024 µM |
| O=C1C[C@@H](c2ccccc2)Oc2cc(O)cc(O)c21 | MTT | EC50 | MT-4 | IIIB | - | >100 µg/mL |
| c1cc(CN2CCCNCCNCCCNCC2)ccc1CN1CCCNCCNCCCNCC1 | cytopathic effect / MTT | EC50 | MT-4 | NL4-3 | - | 0.01 µM |
| C#Cc1ccc(Nc2nccc(Oc3c(C)cc(-c4cn(-c5ccc(C(=O)OC)cc5)nn4)cc3C)n2)cc1 | MTT | EC50 | MT-4 | IIIB | Y188L | >242 µM |
| Nc1ncnc2c1ncn2CCOCP(=O)(O)O | - | EC50 | MT-4 | IIIB | - | 7.7 µM |
| COC(=O)N[C@H](C(=O)N[C@@H](Cc1ccccc1)[C@@H](O)CN(Cc1ccc(-c2ccccn2)cc1)NC(=O)[C@@H](NC(=O)OC)C(C)(C)C)C(C)(C)C | - | EC50 | MT-4 | NL4-3 | A28S L33F V82I GRL04810-resistant | 0.325 µM |
| C#Cc1ccc(Nc2nccc(Oc3c(C)cc(-c4cn(Cc5ccc(C(N)=O)cc5)nn4)cc3C)n2)cc1 | MTT | EC50 | MT-4 | IIIB | K103N | 0.068 µM |
| Cc1cn([C@H]2C[C@H](N=[N+]=[N-])[C@@H](CO)O2)c(=O)[nH]c1=O | p24 | EC50 | PBMC | 3TC-resistant (RT M184V) Clinical isolate | RT-M184V | 0.0005 µM |
| CCOCn1c(Cc2ccccc2)c(CC)c(=O)[nH]c1=O | syncytia | EC50 | CEM | IIIB TIBO R82913-resistant (RT K103N) | RT-K103N | 0.24 µg/mL |
| Cc1cn([C@H]2C=C[C@@H](CO)O2)c(=O)[nH]c1=O | β-galactosidase | EC50 | MAGI (CCR5) + MAGI | NL4-3 | RT-M184V | 0.22 µM |
| C#Cc1ccc(Nc2nccc(Oc3c(C)cc(-c4cn(Cc5cccc(C(=O)OC)c5)nn4)cc3C)n2)cc1 | MTT | EC50 | MT-4 | IIIB | - | 0.072 µM |
| CCNc1cccnc1N1CCN(C(=O)c2cc3cc(OC)ccc3[nH]2)CC1 | syncytia | EC50 | CEM | IIIB PYR(RT-Y181C) | RT-Y181C | 0.4 µg/mL |
| C#Cc1ccc(Nc2nccc(Oc3c(C)cc(-c4cn(Cc5ccccc5[N+](=O)[O-])nn4)cc3C)n2)cc1 | MTT | EC50 | MT-4 | IIIB | K103N | 0.31 µM |
| CCn1c(=O)c(C)cn([C@@H]2O[C@H](CO[Si](C)(C)C(C)(C)C)C3(OS(=O)(=O)C=C3N)[C@H]2O[Si](C)(C)C(C)(C)C)c1=O | syncytia | EC50 | CEM | IIIB TIBO R82913-resistant (RT K103N) | RT-K103N | 0.23 µg/mL |

Repeating the first 8 entries:

COC(=O)[C@H](C)NP(=O)(OC[C@@H]1C=C[C@H](n2cc(C)c(=O)[nH]c2=O)O1)Oc1ccc(Br)cc1 ; read by: p24 ; endpoint: EC50 ; cell line: PBMC ; strain or isolate: S762-4 NRTI resistant ; changes: RT-M41L T215Y ; result: 0.008 µM
CCOC(=O)C(=O)CC(=O)c1ccc(Oc2ccnc(Nc3ccc(C#N)cc3)n2)cc1 ; read by: MTT ; endpoint: EC50 ; cell line: MT-4 ; strain or isolate: IIIB ; changes: K103N + Y181C ; result: >22 µM
Cc1cn([C@H]2C[C@H](N=[N+]=[N-])[C@@H](CO)O2)c(=O)[nH]c1=O ; read by: p24 ; endpoint: EC50 ; cell line: MM + M/M ; strain or isolate: BaL ; result: 0.03 µM
NC(N)=NCCC[C@H](N)C(=O)NC[C@H]1O[C@H](O[C@H]2C(O)[C@@H](O[C@H]3O[C@H](CO)[C@@H](O)[C@H](NC(=O)[C@@H](N)CCCN=C(N)N)[C@H]3O)[C@H](NC(=O)[C@@H](N)CCCN=C(N)N)C[C@@H]2NC(=O)[C@@H](N)CCCN=C(N)N)[C@H](O)[C@@H](O)[C@@H]1O ; read by: cytopathic effect / MTT ; endpoint: EC50 ; cell line: MT-4 ; strain or isolate: AOM ; result: 67 µM
CN=C1CN=C(c2ccc[nH]2)c2cc(Cl)ccc2N1 ; read by: antigen ; endpoint: EC50 ; cell line: H9 ; strain or isolate: IIIB ; result: 2 µM
CCCc1cc(=O)oc2c3c(c4c(c12)OC(C)(C)C=C4)O[C@H](C)[C@@H](C)[C@@H]3O ; read by: XTT ; endpoint: EC50 ; cell line: MT-2 ; strain or isolate: IIIB ; result: 0.4 µM
Cc1ccnc2c1NC(=O)c1cccnc1N2C1CC1 ; read by: MTT ; endpoint: EC50 ; cell line: MT-4 ; strain or isolate: IIIB ; changes: E138K ; result: 0.18 µM
C/C=C/CSc1cc(NC(=S)c2ccsc2C)ccc1Cl ; read by: cytopathic effect / XTT ; endpoint: EC50 ; cell line: CEM + CEM-SS ; strain or isolate: SK1 ; result: 0.08 µM